PSTVd loop 15 mutant pool in Nicotiana benthamiana

Data from the supplement of Wu et al. 2024, doi:10.1371/journal.ppat.1012142.

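Three N. benthamiana plants were inoculated with the whole mutant pool. Samples came from the inoculated region at 5 days, the leaf margin at 10 and upper systemic leaves at 12.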

Region: loop 15 of PSTVd (intermediate strain), upper and lower strand joined, each 5' to 3', the first 7 letters being the upper strand, closing pairs included. Wild type: GGAAACCGCUACUAC. Varied positions (N): GGAAACCGNNNNNNC.

Values are reads per thousand in the sample; higher means more abundant, 0 means not found.
Each value is the mean of three plants.
"Pool" is the share in the plasmid pool used as inoculum, on the same scale.
The inoculated region was read from the minus strand, the other sites from the plus strand.
IR is the inoculated region, LM the leaf margin, Sys the systemic leaves.
With 43,870-66,106 reads a sample, very low values are single reads.

GGAAACCGUGCCCUC (pool 0.208) read IR 0.110; LM 0.00668; Sys 0.00537.
GGAAACCGAACAUGC (pool 0.224) read IR 0.0850; LM 0.0128; Sys 0.
GGAAACCGCAUGAAC (pool 0.208) read IR 0.0885; LM 0.00539; Sys 0.
GGAAACCGAAUCGCC (pool 0.144) read IR 0.0722; LM 0; Sys 0.
GGAAACCGCUGACCC (pool 0.240) read IR 0.104; LM 0.0208; Sys 0.
GGAAACCGUAAAUCC (pool 0.240) read IR 0.320; LM 0.0854; Sys 0.00537.
GGAAACCGGUUUCUC (pool 0.320) read IR 0.0803; LM 0.00539; Sys 0.
GGAAACCGGGAAAUC (pool 0.176) read IR 0.119; LM 0.00742; Sys 0.
GGAAACCGAGCAUAC (pool 0.224) read IR 0.263; LM 0.147; Sys 0.0107.
GGAAACCGCCUCACC (pool 0.256) read IR 0.173; LM 0.0200; Sys 0.
GGAAACCGCAUGCAC (pool 0.192) read IR 0.0969; LM 0; Sys 0.
GGAAACCGUGUACAC (pool 0.192) read IR 0.115; LM 0.0134; Sys 0.
GGAAACCGUUUAUGC (pool 0.240) read IR 0.0614; LM 0.0187; Sys 0.
GGAAACCGUGAUGAC (pool 0.240) read IR 0.0859; LM 0.00539; Sys 0.
GGAAACCGUCUCUCC (pool 0.192) read IR 0.0957; LM 0.0108; Sys 0.00537.
GGAAACCGAGUAGUC (pool 0.192) read IR 0.0862; LM 0.0128; Sys 0.
GGAAACCGCUUCAGC (pool 0.160) read IR 0.0896; LM 0.0175; Sys 0.
GGAAACCGUGUCAUC (pool 0.176) read IR 0.0947; LM 0.00742; Sys 0.00537.
GGAAACCGAGACUGC (pool 0.192) read IR 0.277; LM 0.105; Sys 0.0322.
GGAAACCGUCCAGGC (pool 0.272) read IR 0.106; LM 0.00742; Sys 0.
GGAAACCGCUUCGAC (pool 0.240) read IR 0.110; LM 0.0195; Sys 0.
GGAAACCGGCCCCAC (pool 0.336) read IR 0.107; LM 0.0175; Sys 0.
GGAAACCGUCUGUGC (pool 0.176) read IR 0.418; LM 0.0928; Sys 0.0107.
GGAAACCGUUGUGCC (pool 0.272) read IR 0.0487; LM 0.0134; Sys 0.
GGAAACCGGGCCUAC (pool 0.256) read IR 0.0976; LM 0.0182; Sys 0.00537.
GGAAACCGAUUGGCC (pool 0.176) read IR 0.0579; LM 0; Sys 0.
GGAAACCGGAAACAC (pool 0.192) read IR 0.109; LM 0.0108; Sys 0.
GGAAACCGUGCUUAC (pool 0.288) read IR 0.386; LM 0.114; Sys 0.0562.
GGAAACCGGCACAUC (pool 0.128) read IR 0.119; LM 0; Sys 0.

For reference, wild type rose from 33.9 per thousand in the pool to 202, 200, 159 (inoculated region), 724, 746, 710 (leaf margin) and 856, 883, 880 (systemic leaves).
The authors trace changes outside the varied positions to PCR and sequencing errors or to mutation in the plant; presence does not show that a variant is infectious alone.